Pooled drug test results. Numbers come from NIAID ChemDB, via PubChem.

All rows: tests in culture; agent: Mycobacterium tuberculosis

Blank or dashed fields: not listed here.

compound,cells,method,strain or isolate,dose,endpoint,value
Cc1cc(C2=NNC(c3ccccc3)C2)ccc1O,-,-,H37Rv,6.25 µg/mL,inhibition,88%
CCN=c1cc2n(-c3ccc(Cl)cc3)c3ccccc3nc-2cc1Nc1ccc(Cl)cc1,-,-,MTB11 (EMB-resistant),-,MIC,0.06 µg/mL
Cn1c[n+](C)cc1C(=O)[O-],-,-,H37Rv,-,MIC,>128 µg/mL
Cc1ccccc1NC(=S)NNC(=O)c1ccncc1,-,-,WT,-,MIC,5.44 µM
NNC(=O)c1ccncc1,-,-,90-0241 (drug-susceptible),-,MIC,0.04 µg/mL
C=CCN1C(=O)C(C)S/C1=N\N=C1/C(=O)Nc2ccccc21,-,-,H37Rv,12 µg/mL,inhibition,5%
NCC[C@H](O)C(=O)N[C@@H]1C[C@H](N)[C@@H](O[C@H]2O[C@H](CN)[C@@H](O)[C@H](O)[C@H]2O)[C@H](O)[C@H]1O[C@H]1O[C@H](CO)[C@@H](O)[C@H](N)[C@H]1O,-,-,90-0201 (drug-susceptible),-,MIC,0.5 µg/mL
Cc1ccc(N2C(=O)C(C)S/C2=N/N=C2\C(=O)Nc3ccc(Br)cc32)cc1,-,-,H37Rv,-,EC50,>12 µg/mL
O=C(CNc1ccccc1O)Sc1nnc(-c2ccncc2)o1,-,BACTEC / radiometric,H37Rv (ATCC 27294),0.1184 µM,inhibition,69%
CN[C@@H]1[C@H](O[C@H]2[C@H](O[C@H]3[C@H](O)[C@@H](O)[C@H](N=C(N)N)[C@@H](O)[C@@H]3N=C(N)N)O[C@@H](C)[C@]2(O)C=O)O[C@@H](CO)[C@H](O)[C@H]1O,-,-,ATCC 27294,-,MIC,0.086 µM
COc1ccc(/C=C/C(=O)c2c(O)cc(O[C@@H]3O[C@H](CO)[C@@H](O)[C@H](O)[C@H]3O[C@@H]3O[C@@H](C)[C@H](O)[C@@H](O)[C@H]3O)cc2O)cc1O,-,-,-,-,MIC50,>128 µg/mL
Cc1ccc(Nc2nc(NNc3nc(-c4ccc(Cl)cc4)c(C#N)c(=O)n3C)nc(Nc3ccc(C)cc3C)n2)c(C)c1,-,-,H37Rv,12.5 µg/mL,inhibition,56%
C=C1CCC(OC(C)=O)C2(C)C(OC(C)=O)CC3OC3(C)C2C(OC(C)=O)C2C(C)C(=O)OC2C1Cl,-,BACTEC,H37Rv,12.5 µg/mL,inhibition,11%
O=C(NNC(=S)Nc1ccc(Br)cc1)c1ccncc1,-,-,WT,-,MIC,2.22 µM
CC(=O)NC1C(O)OC(CO)C(OC2OC(CO)C(O)C(O)C2NC(=O)NCCCCCCNC(=O)n2cc(F)c(=O)[nH]c2=O)C1O,-,BACTEC,H37Rv,-,MIC bound,≤12.5 µg/mL
CC(C)N=c1cc2n(-c3ccc(Cl)cc3)c3ccccc3nc-2cc1Nc1ccc(Cl)cc1,-,-,H37Rv,-,MIC,0.1 µg/mL
CO[C@H]1/C=C/O[C@@]2(C)Oc3c(C)c(O)c4c(O)c(c5c(c4c3C2=O)NC2(CCN(CC(C)C)CC2)N=5)=NC(=O)/C(C)=C\C=C\[C@H](C)[C@H](O)[C@@H](C)[C@@H](O)[C@@H](C)[C@H](OC(C)=O)[C@@H]1C,-,-,3181-5 (RIF-S),-,MBC,0.125 µg/mL
Cc1ccc(NC(=S)NNC(=O)c2ccncc2)cc1,-,-,WT,-,MIC,5.44 µM
CCN(CC)C(=S)[S][Sn]([S]C(=S)N(CC)CC)([c]1ccccc1)[c]1ccccc1,-,BACTEC,H37Rv,128 µg/mL,inhibition,100%
CC[C@@H](CO)NCCN[C@@H](CC)CO,-,-,90-0201 (drug-susceptible),-,MIC,1 µg/mL
CC1=C2CC[C@]3(C)O[C@H]3CC/C(C)=C/CC/C(C)=C/[C@H]2OC1,-,-,H37Rv,-,MIC,64 µg/mL
Cc1c(CN2CCN(C)CC2)cc(-c2ccccc2)n1-c1cccc2ccccc12,-,-,103471,-,MIC,>16 µg/mL
COc1ccc(Nc2nc(NNc3nc(-c4ccccc4)c(C#N)c(=O)n3C)nc(Nc3ccc(OC)cc3)n2)cc1,-,-,H37Rv,12.5 µg/mL,inhibition,71%
O=C(CNc1ccccc1[N+](=O)[O-])Sc1nnc(-c2ccncc2)o1,-,broth dilution / resazurin,H37Rv (ATCC 27294),-,MIC99,6.05 µg/mL
O=C(Nc1cc(C2=NCCN2)cc(C2=NCCN2)c1)c1ccc(C(=O)Nc2cc(C3=NCCN3)cc(C3=NCCN3)c2)cc1,-,resazurin,H37Rv,6.25 µg/mL,inhibition,85%
Cc1cc(C(=O)/C=C/c2c(Cl)cccc2Cl)ccc1O,-,-,H37Rv,-,MIC,6.25 µg/mL
NC[C@@H]1O[C@H](O[C@H]2[C@@H](O)[C@H](O[C@@H]3[C@@H](O)[C@H](N)C[C@H](N)[C@H]3O[C@H]3O[C@H](CO)[C@@H](O)[C@H](O)[C@H]3N)O[C@@H]2CO)[C@H](N)[C@@H](O)[C@@H]1O,-,-,-,-,MIC50,4 µg/mL
Cn1c(NNc2nc(Nc3cccc([N+](=O)[O-])c3)nc(Nc3cccc([N+](=O)[O-])c3)n2)nc(-c2ccc(Cl)cc2)c(C#N)c1=O,VERO,-,H37Rv,12.5 µg/mL,inhibition,98%
CC1S/C(=N/N=C2\C(=O)Nc3ccc(Br)cc32)N(c2ccc(Cl)cc2)C1=O,-,-,H37Rv,-,MIC,>12.5 µg/mL
Cc1cc(C(=O)/C=C/c2ccc(F)cc2)ccc1O,-,-,H37Rv,6.25 µg/mL,inhibition,94%
C=CCn1c(-c2ccccc2)cs/c1=N\N=C1/C(=O)Nc2ccc(Br)cc21.O,-,-,H37Rv,12 µg/mL,inhibition,19%
CC1COc2c(N3CCN(C)CC3)c(F)cc3c(=O)c(C(=O)O)cn1c23,-,-,90-0233 (INH SM-RS),-,MIC,0.5 µg/mL
CC(C)c1ccc2c(c1)CCC1C2(C)CCCC1(C)C(O)c1ccccc1,VERO,BACTEC,H37Rv,-,MIC,12.5 µg/mL
O=C(NNC(=S)Nc1ccc(F)cc1)c1ccncc1,-,-,INH resistant,-,MIC,1.34 µM
O=C(CNc1ccc([N+](=O)[O-])cc1)Sc1nnc(-c2ccncc2)o1,-,BACTEC / radiometric,H37Rv (ATCC 27294),0.0052 µM,inhibition,96%
Cc1c(CN2CCSCC2)cc(-c2ccc(F)cc2)n1-c1ccc(Cl)cc1,-,-,103471,-,MIC,2 µg/mL
Cn1c(NNc2nc(Nc3cc(Cl)cc(Cl)c3)nc(Nc3cc(Cl)cc(Cl)c3)n2)nc(-c2ccc(Cl)cc2)c(C#N)c1=O,-,-,H37Rv,12.5 µg/mL,inhibition,66%
Cc1ccc(NC(=S)SCc2ccc(Cl)c(Cl)c2)cc1Br,-,BACTEC,H37Rv,-,MIC bound,>12.5 µg/mL
Cc1c(CN2CCN(C)CC2)cc(-c2ccc(Cl)cc2)n1-c1ccc(Cl)cc1,-,-,103471,-,MIC,0.7 µg/mL
O=C(O)c1c(Cl)c(Cl)c(Cl)c(Cl)c1-c1c2cc(I)c(=O)c(I)c-2oc2c(I)c(O)c(I)cc12,-,BACTEC,H37Rv,12.5 µg/mL,inhibition,-2%
COc1ccc(C2CC(c3ccc(O)c(C)c3)=NN2)cc1,-,-,H37Rv,-,MIC,>6.25 µg/mL
Cn1c(NNc2nc(Nc3ccccn3)nc(Nc3ccccn3)n2)nc(-c2ccccc2)c(C#N)c1=O,-,-,H37Rv,-,EC50,>12.5 µg/mL
COc1ccc2cc3[n+](cc2c1OC)CCc1cc2c(cc1-3)OCO2,-,-,-,-,MIC50,64 µg/mL
Cn1c(NNc2nc(Nc3ccc(Cl)cc3)nc(Nc3ccc(Cl)cc3)n2)nc(-c2ccc(Cl)cc2)c(C#N)c1=O,-,-,H37Rv,-,EC50,<12.5 µg/mL
CC1(C)[C@@H](Br)CC[C@]2(C)O[C@H]3COC(=O)C3=CC[C@@H]12,-,-,H37Rv,-,MIC,128 µg/mL
O=C(CNc1cccc([N+](=O)[O-])c1)Sc1nnc(-c2ccncc2)o1,-,BACTEC / radiometric,H37Rv (ATCC 27294),0.0132 µM,inhibition,86%
COc1cc2c(c3oc(=O)c4c(c13)CCC4=O)C1C=COC1O2,-,-,-,-,MIC50,32 µg/mL
CO[C@H]1/C=C/O[C@@]2(C)Oc3c(C)c(O)c4c(O)c(c(/C=N/N5CCN(C)CC5)c(O)c4c3C2=O)NC(=O)/C(C)=C\C=C\[C@H](C)[C@H](O)[C@@H](C)[C@@H](O)[C@@H](C)[C@H](OC(C)=O)[C@@H]1C,-,-,ATCC 27294,-,MIC,0.036 µM
CCCCN1C(=O)C(C)S/C1=N/N=C1\C(=O)Nc2ccc(Br)cc21,-,-,H37Rv,-,EC50,>12 µg/mL
Cc1cc(C(=O)/C=C/c2ccc(N(C)C)cc2)ccc1O,-,-,H37Rv,-,MIC,6.25 µg/mL
CCNc1nc(NCC)nc(NNc2nc(-c3ccccc3)c(C#N)c(=O)n2C)n1,-,-,H37Rv,-,MIC,>12.5 µg/mL
Cc1c(CN2CCSCC2)cc(-c2ccccc2)n1-c1cccc2ccccc12,-,-,103471,-,MIC,>16 µg/mL
O=C(NNC(=S)Nc1ccc(Cl)cc1)c1ccncc1,-,-,WT,-,MIC,2.54 µM
CCCCOC(=O)C1C2CCC(O2)C1C(N)=O,-,BACTEC,H37Rv,-,MIC bound,>12.5 µg/mL
C/C=C\C[C@@H]1O[C@H]1/C=C/C1CCCCCCCC(=O)O1,-,-,H37Rv,-,MIC,8 µg/mL
C=CCSS/C=C/CS(=O)CC=C,-,-,EMB-R,-,MIC,>12.5 µg/mL
C[C@@H]1CN(c2c(F)c(N)c3c(=O)c(C(=O)O)cn(C4CC4)c3c2F)C[C@H](C)N1,-,-,891868,-,MIC,0.1 µg/mL
CC1=C(N)C(=O)C2=C(C1=O)N1C[C@H]3[C@H](N3C)[C@]1(O)[C@@H]2COC(N)=O,-,-,CS-R,-,MIC,0.4 µg/mL
CCC[C@@H](OC(C)=O)C1=C(Br)/C(=C/Br)OC1=O,-,-,H37Rv,-,MIC,>128 µg/mL
O=c1c(Cl)c2cc3c(cc2c2ccccc12)nc1ccccc1n3Cc1ccc([N+](=O)[O-])cc1,-,BACTEC,H37Rv,-,MIC bound,>12.5 µg/mL
Clc1ccc(Nc2cc3nc4ccccc4n(-c4ccc(Cl)c(Cl)c4)c-3cc2=NC2CCNCC2)cc1Cl,-,-,MTB11 (EMB-resistant),-,MIC,2 µg/mL
CN(CCO)C1=CC(=O)C(N2c3ccccc3Nc3cc(O)c(N(C)CCO)cc32)=CC1=O,-,BACTEC,H37Rv,12.5 µg/mL,inhibition,-27%
O=C(CSc1nc2ccccc2c(=O)n1-c1ccccc1)N=Nc1c(O)[nH]c2ccc(Br)cc12,-,-,H37Rv,-,MIC,>12.5 µg/mL
CCOP1(=O)O[C@@H](c2ccccc2)[C@@H](C)N1C,-,BACTEC,H37Rv,12.5 µg/mL,inhibition,0%
CCNC(=S)N=Nc1c(O)[nH]c2ccccc12,-,-,H37Rv,-,MIC,>12.5 µg/mL
CS(=O)(=O)O.N/C(=N\O)c1ccc2oc(/C=C/c3cc4cc(/C(N)=N/O)ccc4o3)cc2c1,-,BACTEC,H37Rv,12.5 µg/mL,inhibition,8%
Cc1cc(C(=O)/C=C/c2ccco2)ccc1O,-,-,H37Rv,-,MIC,>6.25 µg/mL
NC(N)=NNCC(=O)Nc1ccc(S(=O)(=O)c2ccc(NC(=O)CNN=C(N)N)cc2)cc1,-,BACTEC,H37Rv,-,MIC bound,>12.5 µg/mL
CC[C@H]1OC(=O)[C@H](C)[C@@H](O[C@H]2C[C@@](C)(OC)[C@@H](O)[C@H](C)O2)[C@H](C)[C@@H](O[C@@H]2O[C@H](C)C[C@H](N(C)C)[C@H]2O)[C@](C)(OC)C[C@@H](C)C(=O)[C@H](C)[C@@H](O)[C@]1(C)O,-,-,92-0492 MDR (INH RIF-resistant),-,MIC,4 µg/mL
CC1=NC(C)=C(/C(C)=N/NC(=O)c2ccccc2O)C(C)/C1=C(\C)NNC(=O)c1ccccc1O,-,BACTEC,H37Rv,-,MIC bound,>12.5 µg/mL
O=C(NNC(=S)Nc1c(Cl)cccc1Cl)c1ccncc1,-,-,INH resistant,-,MIC,2.28 µM
CC1=C[C@H]2O[C@@H]3[C@H](O)[C@@H](O)[C@@](C)([C@@]2(CO)CC1)[C@]31CO1,-,BACTEC,H37Rv,-,MIC bound,>12.5 µg/mL
Cc1cc(C2=NNC(c3ccccc3Cl)C2)ccc1O,-,-,H37Rv,-,MIC,>6.25 µg/mL
Cc1cc(NC(=S)SCc2ccc(Cl)cc2)ccc1Cl,-,BACTEC,H37Rv,12.5 µg/mL,inhibition,62%
C[C@]1(/C=C/Cl)C[C@](Cl)(CBr)[C@@H](Br)C[C@H]1Cl,-,-,H37Rv,-,MIC,32 µg/mL
Cl.Cl.FC(F)(F)c1ccc2c(c1)N(CCCN1CCN(CCCl)CC1)c1ccccc1S2,-,BACTEC,H37Rv,-,MIC bound,>12.5 µg/mL
O=C(CNc1ccccn1)Sc1nnc(-c2ccncc2)o1,-,BACTEC / radiometric,H37Rv (ATCC 27294),0.0089 µM,inhibition,96%
CC/C(=N\NC(=O)c1ccncc1)c1ccc(Cl)cc1,-,resazurin,H37Rv,-,MIC,≤0.1 µg/mL
O=C(COc1ccccc1)N=Nc1c(O)[nH]c2ccccc12,-,-,H37Rv,-,MIC,>12.5 µg/mL

Repeating the final 6 entries:

compound,cells,method,strain or isolate,dose,endpoint,value
Cc1cc(NC(=S)SCc2ccc(Cl)cc2)ccc1Cl,-,BACTEC,H37Rv,12.5 µg/mL,inhibition,62%
C[C@]1(/C=C/Cl)C[C@](Cl)(CBr)[C@@H](Br)C[C@H]1Cl,-,-,H37Rv,-,MIC,32 µg/mL
Cl.Cl.FC(F)(F)c1ccc2c(c1)N(CCCN1CCN(CCCl)CC1)c1ccccc1S2,-,BACTEC,H37Rv,-,MIC bound,>12.5 µg/mL
O=C(CNc1ccccn1)Sc1nnc(-c2ccncc2)o1,-,BACTEC / radiometric,H37Rv (ATCC 27294),0.0089 µM,inhibition,96%
CC/C(=N\NC(=O)c1ccncc1)c1ccc(Cl)cc1,-,resazurin,H37Rv,-,MIC,≤0.1 µg/mL
O=C(COc1ccccc1)N=Nc1c(O)[nH]c2ccccc12,-,-,H37Rv,-,MIC,>12.5 µg/mL

MIC50, MIC90 and the like: level of inhibition, or share of isolates inhibited. MIC bound: limit read from a one-dose screen. ECn is the concentration giving n% inhibition of infection, replication or growth. Percent inhibition refers to the dose given; in toxicity tests it is the harm to the cells. Neighbouring rows are from separate reports.